Results deposited as PubChem BioAssay AID624099 (ICCB-Longwood, 2012).

Purpose: 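Human genes that papillomavirus E2 requires to repress the HPV18 LCR promoter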 (primary screen)
Cells: human C33A cervical carcinoma cells (HPV-negative) stably expressing BPV1 E2 and an HPV18 LCR luciferase reporter
Reagent: siRNA pool against human genes, 40 nM
Time to read-out: 72 h
Detection: 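HPV18 LCR reporter light per well, converted to plate-wise z-scores that exclude control wells, and averaged over triplicate plates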
Direction: mean z-score and z-score: higher = stronger reporter signal, weaker E2 silencing
Hit rule: 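Mean z ≥ 2 together with z ≥ 2 in two or more of the three replicates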
In all, the deposit lists about 21,000 reagents; this is a random part of them. Over the whole deposit, 497 (2.4%) were called active. 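Higher z means weaker E2 silencing; only reporter increases were scored, and knock-downs that hurt cell survival may mask genuine repressor factors.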 Unmarked entries are inactive.

gene | mean z-score | z-score, replicate A | z-score, replicate B | z-score, replicate C
ADM2 | 0.66 | 1.02 | 0.56 | 0.41
OLIG1 | -0.39 | -0.75 | -0.1 | -0.33
CCZ1 | 1.72 | 1.49 | 1.91 | 1.75
RPL18A | -1.42 | -1.35 | -1.29 | -1.61
CRYAB | 0.29 | 0.31 | 0.38 | 0.18
IRX5 | -0.39 | -0.54 | -0.51 | -0.12
CCDC170 | 0.67 | 0.76 | 0.54 | 0.7
COA8 | 0.07 | 0.02 | 0.15 | 0.04
PIGV | -0.25 | -0.46 | -0.25 | -0.05
AKR7L | -0.88 | -0.9 | -0.75 | -0.98
CCNH | -0.42 | -0.39 | -0.42 | -0.44
MYPN | 0.69 | 1.14 | 0.59 | 0.33
OR2T11 | -1.5 | -1.75 | -1.23 | -1.51
LEMD1 | 1.7 | 1.56 | 1.8 | 1.73
TRPV5 | -0.65 | -0.83 | -0.48 | -0.64
CHKB | -0.03 | -0.13 | -0.25 | 0.28
CCDC62 | -0.48 | -0.74 | -0.35 | -0.34
DARS1 | -0.99 | -0.46 | -1.29 | -1.21
LOC402336 (retired record) | -1.44 | -2.12 | -1.29 | -0.9
CDH3 | -0.52 | -0.58 | -0.74 | -0.23
TUFM | -0.25 | -0.42 | -0.37 | 0.04
LOC389757 (retired record) | -1 | -1.05 | -1.01 | -0.95
SLC25A32 | 1.12 | 1.11 | 0.86 | 1.4
CAPN2 | -1.08 | -0.6 | -1.34 | -1.29
OVCH2 | 2.05 (active) | 2.13 | 1.91 | 2.09
IPO13 | 0.37 | 0.53 | 0.27 | 0.31
LAMTOR2 | 0.76 | 0.74 | 0.89 | 0.64
EP300 | 0.97 | 1.07 | 0.9 | 0.95
PNISR | 0.06 | 0.09 | -0.04 | 0.13
TMEM53 | 1.46 | 1.47 | 1.69 | 1.21
ZNF549 | -0.15 | -0.35 | 0.01 | -0.12
CBS | -0.93 | -1.15 | -0.87 | -0.76
CD1E | 0.31 | 0.23 | 0.19 | 0.51
RGS20 | -0.48 | -0.68 | -0.23 | -0.51
BTAF1 | 1.17 | 1.04 | 1 | 1.48
FKBP14 | 1.18 | 1.01 | 1.21 | 1.32
JAML | 2.53 (active) | 2.93 | 2.28 | 2.38
MLYCD | 0.57 | 0.19 | 0.78 | 0.75
ETV1 | 0.67 | 0.96 | 0.47 | 0.59
KLHL13 | 1.51 | 1.19 | 1.7 | 1.65
VTA1 | -0.5 | 0.03 | -0.89 | -0.65
RBMY1E | -0.41 | -0.24 | -0.42 | -0.58
CEP104 | -0.54 | -0.52 | -0.57 | -0.52
KRT33A | 0.72 | 0.78 | 0.73 | 0.64
DNAAF3 | -0.72 | -0.38 | -0.81 | -0.98
HID1 | 0.03 | 1.55 | -0.77 | -0.7
MRRFP1 | 0.39 | 0.41 | 0.4 | 0.36
LEMD3 | -0.5 | -0.57 | -0.74 | -0.17
EVA1C | -0.04 | -0.3 | -0.15 | 0.34
KCNJ6 | -0.25 | -0.36 | -0.24 | -0.13
TBC1D10C | 0.78 | 0.73 | 0.45 | 1.18
REG1CP | 1.59 | 1.74 | 1.54 | 1.48
FLII | 0.46 | 0.54 | 0.32 | 0.51
FAM110D | -0.89 | -0.92 | -1.01 | -0.75
ANKRD20A8P | -2.05 | -2.39 | -1.73 | -2.02
COL7A1 | 1.07 | 1 | 1.15 | 1.07
ZNF100 | 0.63 | 0.69 | 0.81 | 0.38
LINC00907 | -0.02 | 0.18 | -0.08 | -0.16
RHBDL1 | -0.8 | -0.63 | -0.78 | -1
SLC2A13 | -0.31 | 0.02 | -0.22 | -0.73
SPDYE1 | -1.01 | -1.57 | -1 | -0.46
FAM76A | -0.34 | -0.3 | -0.92 | 0.2
NABP2 | 0.34 | 0.31 | 0.22 | 0.49
P4HTM | -1.7 | -1.78 | -1.72 | -1.58
BPIFB4 | -0.61 | -0.54 | -0.12 | -1.16
PCDHGB4 | -0.23 | -0.32 | -0.33 | -0.05
KIAA0930 | 0.15 | -0.07 | 0.51 | 0
CCDC134 | -0.36 | -0.17 | 0.04 | -0.95
BORA | 0.96 | 2.05 | 0.82 | 0
H1-0 | -0.23 | 0.28 | -0.5 | -0.47
PTAR1 | 0.27 | 0.37 | 0.45 | 0
SPATA2 | 0.8 | 0.77 | 0.92 | 0.7
CD14 | -0.19 | -0.05 | -0.18 | -0.34

Only “z-score, replicate C”, for 10 of the entries above:
ADM2 = 0.41
OLIG1 = -0.33
CCZ1 = 1.75
RPL18A = -1.61
CRYAB = 0.18
IRX5 = -0.12
CCDC170 = 0.7
COA8 = 0.04
PIGV = -0.05
AKR7L = -0.98
